The data set deals with A52ΔN36 (vaccinia virus protein A52, residues 37–190), vaccinia virus strain Western Reserve, Q01220 37-190. The experiment in a line: crystal structure.

In general, stoichiometry N refers to the number of molecules, sites or subunits per partner or assembly.

In the case of “A52ΔN36 (vaccinia virus protein A52, residues 37–190)”, the stoichiometry N amounted to 2.

For the origin of these results see publication PMC2494871, “Vaccinia Virus Proteins A52 and B14 Share a Bcl-2–Like Fold but Have Evolved to Inhibit NF-κB rather than Apoptosis” (2008).
